The values that follow come from patent US12583820B2, “Broad spectrum antivirals against coronavirus” (priority 2020, dated 2026).

This test concerns NV in the replicon harboring cells (HG23 cells). Briefly: Cell-based norovirus replicon system. The arrangement: species or system norovirus (NV). The settings on record: read-out: EC50 (μM) ± SD, Table 12.

On to `CC(C)(COC(=O)N[C@@H](CC1CCCCC1)C(=O)N[C@H](C=O)C[C@@H]1CCNC1=O)Cc1cccc(Cl)c1`, for which the EC50 turned out to be 0.06 µM.
